Measured values from several laboratories, pooled; numbers as filed in NIAID ChemDB.

All rows: whole-cell or culture tests; species: Candida glabrata

ECn is the concentration giving n% inhibition of infection, replication or growth. Inhibition is in % at the dose shown (toxicity tests: loss of growth or viability). Zones are inhibition diameters on agar. Lines come from different laboratories, so protocols vary. An empty or dashed field is not shown. A number after MIC or MFC names an inhibition level or a share of isolates.

| compound | strain or isolate | method | conditions | endpoint | dose | value |
|---|---|---|---|---|---|---|
| CN(C)CCN1C(=O)C=CC1=O | DSM 11226 | broth dilution |  | MIC80 |  | 128 µg/mL |
| CC(C)CC1NC(=O)CC(CCCCCCCCC(C)O)OC(=O)C(CC(C)C)NC(=O)C(CC(C)C)NC(=O)C(CC(C)C)NC(=O)C(C(C)C)NC(=O)C(CC(=O)O)NC(=O)C(CC(C)C)NC1=O | MTCC 3019 | visual reading |  | MFC |  | 4 µg/mL |
| Clc1ccc(C(c2ccccc2)n2cncn2)cc1 |  | agar |  | MIC90 |  | 0.5 µg/mL |
| COc1ccc(N2C(=O)C=CC2=O)cc1 | DSM 11226 | broth dilution |  | MIC80 |  | 4 µg/mL |
| Cn1cccc1/C=C1\SC(=O)N(CC(O)(Cn2nccn2)c2ccc(F)cc2F)C1=O |  |  |  | MIC80 |  | 2.24 µg/mL |
| CCC(C)CC(C)CCCCCCCCC(=O)N[C@H]1C[C@@H](O)[C@H](NCCN)NC(=O)[C@@H]2[C@@H](O)CCN2C(=O)[C@H]([C@H](O)CCN)NC(=O)[C@H]([C@H](O)[C@@H](O)c2ccc(O)cc2)NC(=O)[C@@H]2C[C@@H](O)CN2C(=O)[C@H]([C@@H](C)O)NC1=O | 8658 | broth dilution |  | MIC |  | 2 µg/mL |
| CCCCCOc1ccc(-c2cc(-c3ccc(C(=O)N[C@H]4C[C@@H](O)[C@@H](O)NC(=O)[C@@H]5[C@@H](O)[C@@H](C)CN5C(=O)[C@H]([C@H](O)CC(N)=O)NC(=O)[C@H]([C@H](O)[C@@H](O)c5ccc(O)c(OS(=O)(=O)O)c5)NC(=O)[C@@H]5C[C@@H](O)CN5C(=O)[C@H]([C@@H](C)O)NC4=O)cc3)no2)cc1 |  | broth dilution |  | MIC90 |  | 0.03 µg/mL |
| CC(=O)N1CCN(c2ccc(OC[C@H]3CO[C@](Cn4ccnc4)(c4ccc(Cl)cc4Cl)O3)cc2)CC1 | 40 isolates | broth dilution | pH 5 | EC90 |  | >16 µg/mL |
| C/C(=N/O)C(Cl)(Cl)Cl |  |  |  | MIC100 |  | 6450 µM |
| CCC(C)/C=C1\SC(=O)N(CC(O)(Cn2nccn2)c2ccc(F)cc2F)C1=O |  |  |  | MIC80 |  | 0.31 µg/mL |
| Nc1nc(/N=C/c2ccc[nH]2)n[nH]1 |  | agar diffusion / agar |  | inhibition | 200 µg/mL | 60% |
| NC(=S)N/N=C/c1ccsc1/C=N/NC(N)=S | LMA 90-1085 | broth dilution |  | MIC80 |  | >250 µg/mL |
| CC[C@@H]([C@H](C)O)n1ncn(-c2ccc(N3CCN(c4ccc(OC[C@@H]5CO[C@@](Cn6cncn6)(c6ccc(F)cc6F)C5)cc4)CC3)cc2)c1=O | 40 isolates | broth dilution | pH 4 | EC90 |  | >16 µg/mL |
| C[C@@H](c1ncncc1F)[C@](O)(Cn1cncn1)c1ccc(F)cc1F |  | broth dilution |  | MIC90 |  | 0.25 µg/mL |
| CC(=O)N1CCN(c2ccc(OC[C@H]3CO[C@](Cn4ccnc4)(c4ccc(Cl)cc4Cl)O3)cc2)CC1 | G2 | agar diffusion / agar |  | zone | 20 mg/mL | 12 mm |
| C[C@@H]1C(=O)N(Cc2ccccc2)C(=O)[C@@H]1C | CCC 115-2000 | broth dilution / turbidity |  | MIC |  | 125 µg/mL |
| C/C(=N\c1n[nH]c(N)n1)c1ccccn1 |  | agar diffusion / agar |  | inhibition | 200 µg/mL | 58% |
| Cc1cc(C[n+]2cccc(C=NO)c2)on1.[Br-] |  | broth dilution |  | EC50 |  | >20 µg/mL |
| Cc1ccc(-c2c3c(N)c4c(nc3nc3c2c(C)nn3-c2ccccc2)CCCCC4)cc1 | CCC 115 | broth dilution / absorbance |  | MIC50 |  | 250 µg/mL |
| Nc1nc(/N=C/c2ccccn2)n[nH]1 |  | agar diffusion / agar |  | inhibition | 200 µg/mL | 62% |
| Cc1cccc(C)c1N1C(=O)C=CC1=O | DSM 11226 | broth dilution |  | MIC80 |  | 4 µg/mL |
| Cc1ccc(/C=N/Nc2ccnc3cc(Cl)ccc23)cc1 |  |  |  | MFC |  | 40 µg/mL |
| O/N=C/c1ccc[n+](Cc2ccc(C[n+]3cccc(/C=N/O)c3)s2)c1.[Cl-].[Cl-] |  | broth dilution |  | EC50 |  | >20 µg/mL |
| Cc1ccccc1N1C(=O)C[C@@H](C)C1=O | CCC 115-2000 | broth dilution / turbidity |  | MIC |  | 125 µg/mL |
| C[C@H]1[C@H](O)[C@@H](C)/C=C/C=C/C=C/C=C/C=C/C=C/C=C/[C@H](O[C@@H]2O[C@H](C)[C@@H](O)[C@H](N)[C@@H]2O)C[C@@H]2O[C@](O)(C[C@@H](O)C[C@@H](O)CC[C@H](O)[C@@H](O)C[C@@H](O)CC(=O)O[C@H]1C)C[C@H](O)[C@H]2C(=O)O | ATCC 90030 | broth dilution / absorbance |  | MIC99 |  | 0.39 µM |
| CC(C)CC(O)C(=O)O | G 212 | broth dilution / visual reading |  | MFC100 |  | 72000 µg/mL |
| O/N=C\c1ccc(O)cc1 |  | broth dilution |  | MIC100 |  | >7290 µM |
| C[C@@H](c1ncncc1F)[C@](O)(Cn1cncn1)c1ccc(F)cc1F | 40 isolates | broth dilution | pH 4 | MIC |  | 8 µg/mL |
| O=C1S/C(=C\c2cccnc2)C(=O)N1CC(O)(Cn1nccn1)c1ccc(F)cc1F |  |  |  | MIC80 |  | 4.51 µg/mL |
| C=CCc1ccc(O)c(OC)c1 | 2892 | turbidity |  | MIC90 |  | 500 µg/mL |
| Cc1ccccc1N1C(=O)CC(C)C1=O | CCC 115-2000 | broth dilution / turbidity |  | MIC |  | 125 µg/mL |
| COc1ccc(/C=C2\SC(=O)N(CC(O)(Cn3nccn3)c3ccc(F)cc3F)C2=O)cc1 |  |  |  | MIC80 |  | 2.17 µg/mL |
| CN[C@H]1CC[C@@H](c2ccc(Cl)c(Cl)c2)c2ccccc21 | Clinical isolate PAT2ISO3 | broth dilution |  | MFC |  | 16 µg/mL |
| Nc1nc(/N=C/c2ccccn2)n[nH]1.Nc1nc(/N=C/c2ccccn2)n[nH]1.[O]=[V+2] |  | agar diffusion / agar |  | inhibition | 200 µg/mL | 78% |
| O/N=C/c1cccc[n+]1Cc1ccc(C[n+]2ccccc2/C=N/O)s1.[Cl-].[Cl-] |  | broth dilution |  | EC50 |  | >20 µg/mL |
| Cc1ccc(-c2c3c(N)c4c(nc3nc3c2c(C)nn3-c2ccccc2)CCC4)cc1 | CCC 115 | broth dilution / absorbance |  | MIC50 |  | >250 µg/mL |
| CCOc1ccc2nc3cc(N=C4NC(=O)/C(=C\c5ccc([N+](=O)[O-])o5)S4)ccc3c(N)c2c1 |  | broth dilution |  | MFC |  | 208 µg/mL |
| O=C1S/C(=C\c2cccs2)C(=O)N1CC(O)(Cn1nccn1)c1ccc(F)cc1F |  |  |  | MIC80 |  | 0.56 µg/mL |
| C=CC(C)(C)c1cc(C2CC(=O)c3c(cc(O)c(CC=C(C)C)c3O)O2)c(O)cc1O | 35234 | agar diffusion / agar |  | zone | 2 mg/mL | 14 mm |
| NN(Cc1ccccc1)CC(O)(Cn1cncn1)c1ccc(F)cc1F | ATCC 34138 |  |  | MIC80 |  | 2 µg/mL |
| NC(=O)N/N=C/c1ccsc1.NC(=O)N/N=C/c1ccsc1.[Br][Ni][Br] | LMA 1085 | turbidity / absorbance |  | MIC80 |  | 125 µg/mL |
| Nc1nc(/N=C/c2c([O-])ccc3ccccc23)n[nH]1.Nc1nc(/N=C/c2c([O-])ccc3ccccc23)n[nH]1.[O]=[V+2] |  | agar diffusion / agar |  | inhibition | 200 µg/mL | 55% |
| c1ccc(C(c2ccccc2)n2nnc3ccccc32)cc1 |  | broth dilution |  | MFC |  | >256 µg/mL |
| COc1cc(NC(C)CCCNC(=O)CCC(NC(=O)[C@H](N)CCCCN)C(=O)O)c2nc(C(C)(C)C)ccc2c1 |  | broth dilution |  | EC50 |  | >20 µg/mL |
| CCCCCOc1ccc(-c2cc(-c3ccc(C(=O)N[C@H]4C[C@@H](O)[C@@H](O)NC(=O)[C@@H]5[C@@H](O)[C@@H](C)CN5C(=O)[C@H]([C@H](O)CC(N)=O)NC(=O)[C@H]([C@H](O)[C@@H](O)c5ccc(O)c(OS(=O)(=O)O)c5)NC(=O)[C@@H]5C[C@@H](O)CN5C(=O)[C@H]([C@@H](C)O)NC4=O)cc3)no2)cc1 | RC-201 | broth dilution |  | EC50 |  | 0.016 µg/mL |
| O=C(c1ccccc1)C(c1ccccc1)n1cncn1 |  | broth dilution |  | MFC |  | 128 µg/mL |
| O=C1C=CC(=O)N1c1ccc(Br)cc1 | DSM 11226 | broth dilution |  | MIC80 |  | 2 µg/mL |
| O=C(c1ccccc1)C(c1ccccc1)n1ccnc1 |  | agar |  | MIC90 |  | 128 µg/mL |
| C[C@H]1[C@H](O)[C@@H](C)/C=C/C=C/C=C/C=C/C=C/C=C/C=C/[C@H](O[C@@H]2O[C@H](C)[C@@H](O)[C@H](N)[C@@H]2O)C[C@@H]2O[C@](O)(C[C@@H](O)C[C@@H](O)CC[C@H](O)[C@@H](O)C[C@@H](O)CC(=O)O[C@H]1C)C[C@H](O)[C@H]2C(=O)O |  | broth dilution |  | MFC |  | 12.5 µg/mL |
| C[C@H]1[C@H](O)[C@@H](C)/C=C/C=C/C=C/C=C/C=C/C=C/C=C/[C@H](O[C@@H]2O[C@H](C)[C@@H](O)[C@H](N)[C@@H]2O)C[C@@H]2O[C@](O)(C[C@@H](O)C[C@@H](O)CC[C@H](O)[C@@H](O)C[C@@H](O)CC(=O)O[C@H]1C)C[C@H](O)[C@H]2C(=O)O |  | broth dilution |  | MIC100 |  | <0.3 µg/mL |
| CC(C)(C)c1ccccc1N1C(=O)C=CC1=O | DSM 11226 | broth dilution |  | MIC80 |  | 2 µg/mL |
| C[C@H]1[C@H](O)[C@@H](C)/C=C/C=C/C=C/C=C/C=C/C=C/C=C/[C@H](O[C@@H]2O[C@H](C)[C@@H](O)[C@H](N)[C@@H]2O)C[C@@H]2O[C@](O)(C[C@@H](O)C[C@@H](O)CC[C@H](O)[C@@H](O)C[C@@H](O)CC(=O)O[C@H]1C)C[C@H](O)[C@H]2C(=O)O | MTCC 3019 | broth dilution |  | MFC |  | 2 µg/mL |
| O/N=C\c1cccs1 |  |  |  | MIC100 |  | 3930 µM |
| Nc1ncccc1-c1cc(Cc2ccc(COc3ccccn3)cc2)no1 | 8658 | broth dilution |  | MIC |  | 0.03 µg/mL |
| Cc1ccc(-c2c3c(N)c4c(nc3nc3c2c(C)nn3-c2ccccc2)CCCC4)cc1 | CCC 115 | broth dilution / absorbance |  | MIC100 |  | >250 µg/mL |
| CC1C(=O)N(CCCc2ccccc2)C(=O)C1C | CCC 115-2000 | broth dilution / turbidity |  | MIC |  | 125 µg/mL |
| c1ccc(C(c2ccccc2)n2ccnc2)cc1 |  | agar |  | MIC90 |  | 0.5 µg/mL |
| CC(C)(C)N1C(=O)C=CC1=O | DSM 11226 | broth dilution |  | MIC80 |  | 4 µg/mL |
| O=C1O/C(=C\c2ccc(OCC(O)(Cn3cncn3)c3ccc(F)cc3F)cc2)C(c2ccc(F)cc2F)=C1c1ccc(Cl)cc1 | ATCC 90030 | broth dilution |  | MIC50 |  | 4 µg/mL |
| CC(C)C[C@H](N)C(=O)O | G 212 | broth dilution |  | MIC100 |  | >72000 µg/mL |
| COc1ccc(/C=N\O)cc1 |  | broth dilution |  | MFC |  | 6620 µM |

A second listing of 8 rows from above:

compound	strain or isolate	method	conditions	endpoint	dose	value
Cc1cc(C[n+]2cccc(C=NO)c2)on1.[Br-]		broth dilution		EC50		>20 µg/mL
O/N=C/c1cccc[n+]1Cc1ccc(C[n+]2ccccc2/C=N/O)s1.[Cl-].[Cl-]		broth dilution		EC50		>20 µg/mL
Nc1ncccc1-c1cc(Cc2ccc(COc3ccccn3)cc2)no1	8658	broth dilution		MIC		0.03 µg/mL
CC(C)CC1NC(=O)CC(CCCCCCCCC(C)O)OC(=O)C(CC(C)C)NC(=O)C(CC(C)C)NC(=O)C(CC(C)C)NC(=O)C(C(C)C)NC(=O)C(CC(=O)O)NC(=O)C(CC(C)C)NC1=O	MTCC 3019	visual reading		MFC		4 µg/mL
C[C@@H](c1ncncc1F)[C@](O)(Cn1cncn1)c1ccc(F)cc1F		broth dilution		MIC90		0.25 µg/mL
CC[C@@H]([C@H](C)O)n1ncn(-c2ccc(N3CCN(c4ccc(OC[C@@H]5CO[C@@](Cn6cncn6)(c6ccc(F)cc6F)C5)cc4)CC3)cc2)c1=O	40 isolates	broth dilution	pH 4	EC90		>16 µg/mL
Cc1ccccc1N1C(=O)C[C@@H](C)C1=O	CCC 115-2000	broth dilution / turbidity		MIC		125 µg/mL
CCCCCOc1ccc(-c2cc(-c3ccc(C(=O)N[C@H]4C[C@@H](O)[C@@H](O)NC(=O)[C@@H]5[C@@H](O)[C@@H](C)CN5C(=O)[C@H]([C@H](O)CC(N)=O)NC(=O)[C@H]([C@H](O)[C@@H](O)c5ccc(O)c(OS(=O)(=O)O)c5)NC(=O)[C@@H]5C[C@@H](O)CN5C(=O)[C@H]([C@@H](C)O)NC4=O)cc3)no2)cc1		broth dilution		MIC90		0.03 µg/mL